{"source": "patent US10253035B2", "about": "(priority 2016, dated 2019)", "system": "Mtb K204", "settings": "compound in combination with KAN"}
{"compound": "CN(c1ccc2ccccc2c1)S(=O)(=O)c1ccc2[nH]c(=O)c(=O)[nH]c2c1", "note": "[Compound 46]", "values": [{"measurement": "effect on KAN resistance of Mtb K204 (in words)", "value": "completely cancelling the effect of the Eis upregulation"}]}
